Values quoted from earlier work as cited in patent publication US7902170B2, “Influenza virus binding, sialylated oligosaccharide substance and use thereof” (priority 2000, dated 2011).

Test system: influenza virus A/PR/8/34 (H1N1)
Conditions: cited authors (Suzuki, 1994; Müthing, 1996); cited from earlier work

| Substance | Interaction of PR/8/34 with the structure |
| --- | --- |
| NeuAcα3Galβ4(Fucα3)GlcNAcβ- | strong interaction |
| NeuAcα3Galβ4GlcNAcβ3Galβ4(Fucα3)GlcNAcβ- [VIM-2] | strong interaction |
